According to patent US7968297B2, “Method for identification, isolation and production of antigens to a specific pathogen” (Intercell AG, priority 2001, dated 2011):

Tested on: antibodies in human serum
Experiment: Bacterial surface display library screening by MACS with biotinylated human serum
Format: binding
Conditions: for No. of selected clones per ORF and screen: A: Bacterial surface display: A; for No. of selected clones per ORF and screen: B: Bacterial surface display: B; for No. of selected clones per ORF and screen: F: Bacterial surface display: F, LSA50/6 library in lamB with patient sera P1 (1105); for No. of selected clones per ORF and screen: G: Bacterial surface display: G, LSA50/6 library in lamb with IC sera 1 (471)
[1] = screen A: LSA250/1 library in fhuA with patient sera 1 (655)
[2] = screen C: LSA250/1 library in fhuA with IC sera 1 (571)
[3] = screen H: LSA250/1 library in fhuA with patient sera 1 (IgA, 708)
[4] = LSE150 library in fhuA with patient sera 2 (957)
[5] = LSE70 library in lamB with patient sera 2 (1420)
[6] = ORFs selected by bacterial surface display (screens A, B, C; some also D)
[7] = screen B: LSA50/6 library in lamB with patient sera 1 (484)
[8] = screen F: LSA50/6 library in lamB with patient sera P1 (1105)
[9] = screen G: LSA50/6 library in lamb with IC sera 1 (471)
[10] = screen E: LSA50/6 library in lamB with IC sera 2 (454)
[11] = identified by bacterial surface display

homology with ORF1 [compound 3002]
No. of selected clones per ORF and screen [1]: 2 | No. of selected clones per ORF and screen [2]: 1 | No. of selected clones per ORF and screen [3]: H: 4

Carbamoyl-phosphate synthase [compound 0749]
No. of selected clones per ORF and screen [2]: C: 2

CRF1004 (YFFISFLIRLISCSLITETISICPFLDIIEPLPPIKVSSANSGMTGSKSLMGRADANITL)
No. of selected clones per ORF and screen: A [4]: 3 | No. of selected clones per ORF and screen: B [5]: 5 | Location of identified Immunogenic region [6]: aa 29-65

CRF2409 (RRRPPQSNCPPDTVSHHDKWCGLESQHS)
No. of selected clones per ORF and screen: B [5]: B: 6 | Location of identified Immunogenic region [6]: aa 2-24

IgG binding protein A [compound 2548]
No. of selected clones per ORF and screen [1]: A: 55, | No. of selected clones per ORF and screen [7]: B: 54, | No. of selected clones per ORF and screen [2]: C: 35, | No. of selected clones per ORF and screen [8]: F: 59, | No. of selected clones per ORF and screen [9]: G: 56, | No. of selected clones per ORF and screen [3]: H: 38

IgG binding protein [compound 2086]
No. of selected clones per ORF and screen [1]: 1 | No. of selected clones per ORF and screen [7]: 8 | No. of selected clones per ORF and screen [10]: E: 24, | No. of selected clones per ORF and screen [8]: F: 9, | No. of selected clones per ORF and screen [9]: G: 137

CRF0879 (AGFLTKAVLKSTSSLSSNTSSTTSLRAITLNEPSSIFNSTLTFLALS)
No. of selected clones per ORF and screen: A [4]: A: 3, | No. of selected clones per ORF and screen: B [5]: B: 10 | Location of identified Immunogenic region [6]: aa 9-40

Conserved hypothetical protein [compound 2470]
No. of selected clones per ORF and screen [2]: C: 3

Cmp binding factor 1 homolog [compound 1491]
No. of selected clones per ORF and screen [1]: 7 | No. of selected clones per ORF and screen [2]: 2 | No. of selected clones per ORF and screen [10]: 7 | No. of selected clones per ORF and screen [8]: 4

CRF2004 (MNEASNLILTMPNESKAATKIAKIKPPITGAGIQIRFKKLT)
No. of selected clones per ORF and screen: F: F: 13 | Location of identified Immunogenic region [11]: aa 16-32

homology with ORF1 [compound 1955]
No. of selected clones per ORF and screen [1]: 1 | No. of selected clones per ORF and screen [7]: 3 | No. of selected clones per ORF and screen [10]: 1 | No. of selected clones per ORF and screen [8]: 8

Coagulase [compound 2680]
No. of selected clones per ORF and screen [2]: C: 26, | No. of selected clones per ORF and screen [9]: 4 | No. of selected clones per ORF and screen [3]: 8

YtpT, conserved hypothetical protein [compound 1371]
No. of selected clones per ORF and screen [2]: 3 | No. of selected clones per ORF and screen [10]: 2 | No. of selected clones per ORF and screen [9]: G: 1

CRF1928 (RQRPVHVFPKNNNPHGQYNHQYQHHYVTLANAF)
No. of selected clones per ORF and screen: F: F: 9 | Location of identified Immunogenic region [11]: aa 13-22

LPXTGVI protein [compound 0657]
No. of selected clones per ORF and screen [1]: A: 2, | No. of selected clones per ORF and screen [7]: B: 27, | No. of selected clones per ORF and screen [8]: F: 15

Complement, unknown [compound 0308]
No. of selected clones per ORF and screen [1]: 6 | No. of selected clones per ORF and screen [7]: 2 | No. of selected clones per ORF and screen [2]: C: 47, | No. of selected clones per ORF and screen [10]: E: 35

putative Exotoxin [compound 2963]
No. of selected clones per ORF and screen [2]: C: 3, E: 3, | No. of selected clones per ORF and screen [10]: C: 3, E: 3, | No. of selected clones per ORF and screen [9]: G: 1

aureolysin [compound 2351]
No. of selected clones per ORF and screen [1]: 1 | No. of selected clones per ORF and screen [2]: 6

NifS protein homolog [compound 1344]
No. of selected clones per ORF and screen [1]: A: 11

LPXTGIV protein [compound 2180]
No. of selected clones per ORF and screen [1]: A: 3, C: 3, | No. of selected clones per ORF and screen [2]: A: 3, C: 3, | No. of selected clones per ORF and screen [10]: 6 | No. of selected clones per ORF and screen [8]: 2 | No. of selected clones per ORF and screen [3]: H: 6

putative Exotoxin [compound 2960]
No. of selected clones per ORF and screen [2]: C: 101, | No. of selected clones per ORF and screen [10]: E: 2, | No. of selected clones per ORF and screen [3]: H: 58

CRF0308 (RCTKLNVKNADPPAMTAIQQSDATPPNINRKKPHAMAAAKKFVKKEYCNDACCK)
No. of selected clones per ORF and screen: A (LSA250/1 library in fhuA with patient sera 1 (655)): 6 | No. of selected clones per ORF and screen: B (LSA50/6 library in lamB with patient sera 1 (484)): 2 | No. of selected clones per ORF and screen: C (Bacterial surface display: C, LSA250/1 library in fhuA with IC sera 1 (571)): C: 47, | No. of selected clones per ORF and screen: E (Bacterial surface display: E, LSA50/6 library in lamB with IC sera 2 (454)): E: 35 | Location of identified Immunogenic region [11]: aa 5-38

FnbpB [compound 2184]
No. of selected clones per ORF and screen [1]: 2 | No. of selected clones per ORF and screen [2]: 4 | No. of selected clones per ORF and screen [9]: G: 9

hemN homolog [compound 1209]
No. of selected clones per ORF and screen [7]: 7 | No. of selected clones per ORF and screen [8]: 8

ORF1; homology with putative secreted antigen precursor from S. epidermidis [compound 2264]
No. of selected clones per ORF and screen [1]: A: 131, | No. of selected clones per ORF and screen [7]: B: 51, | No. of selected clones per ORF and screen [2]: C: 13, | No. of selected clones per ORF and screen [10]: E: 43, | No. of selected clones per ORF and screen [8]: F: 78, | No. of selected clones per ORF and screen [9]: G: 2, | No. of selected clones per ORF and screen [3]: H: 17

metC [compound 2914]
No. of selected clones per ORF and screen [1]: A: 1, | No. of selected clones per ORF and screen [2]: C: 14, | No. of selected clones per ORF and screen [8]: F: 2

CRF0750 (DAPLGLIPGVTFKNDVPNFSVNIRLSRGEQTTPSKPAAFANLA)
No. of selected clones per ORF and screen: G: G: 44 | Location of identified Immunogenic region [11]: aa 25-39

homology with ORF1 [compound 2746]
No. of selected clones per ORF and screen [1]: A: 1, | No. of selected clones per ORF and screen [3]: H: 13

V8 protease [compound 0569]
No. of selected clones per ORF and screen [1]: A: 1, F: 1 | No. of selected clones per ORF and screen [8]: A: 1, F: 1

ARF0280 (VYMLSSTRFIVRWYNNCNKSTNIINERSSGSIKSDGNSSCFFK)
No. of selected clones per ORF and screen: F: F: 6 | Location of identified Immunogenic region [11]: aa 25-43

ISSP, immunogenic secreted protein precursor, putative [compound 2359]
No. of selected clones per ORF and screen [7]: 4 | No. of selected clones per ORF and screen [8]: 11

leukocidin F homolog [compound 1616]
No. of selected clones per ORF and screen [1]: A: 10

CRF2498 (EVLAIPLSKHEAPAICSCCITLVVVCYWNSNCKVFIKIYFIIIF)
No. of selected clones per ORF and screen: G: G: 8 | Location of identified Immunogenic region [11]: aa 2-15

Hypothetical protein [compound 2577]
No. of selected clones per ORF and screen [2]: C: 6

coma operon protein 2 [compound 0453]
No. of selected clones per ORF and screen [2]: C: 3

Lipase (geh) [compound 2798]
No. of selected clones per ORF and screen [1]: A: 41, | No. of selected clones per ORF and screen [7]: B: 42, | No. of selected clones per ORF and screen [2]: C: 3, | No. of selected clones per ORF and screen [8]: F: 35, | No. of selected clones per ORF and screen [9]: G: 1, | No. of selected clones per ORF and screen [3]: H: 11

CRF2309 (LEPPTRRALTSNTGMILLIASSNTSNASRPLRCSTRSNAE)
No. of selected clones per ORF and screen: B [5]: B: 6 | Location of identified Immunogenic region [6]: aa 4-16

SdrE [compound 0095]
No. of selected clones per ORF and screen [2]: C: 12, | No. of selected clones per ORF and screen [10]: E: 2

B1: repC [ORF2963P] (protein, listed as Staphylococcus aureus)
chain: MQEYQKSLNTLKKPINVPYEQETEKVGGLFSKEIQETGNVVISQKDFNEFQKQIKAAQDISEDYEYIKSGRALDDKDKEIREKDDLLNKAVERIENADDNFNQLYENAKPLKENIEIALKLLKILLKELERVLGRNTFAERVNKLTEDEPKLNGLAGNLDKKMNPELYSEQEQQQEQQKNQKRDRGMHL
No. of selected clones per ORF and screen [2]: C: 3

B2: repC [ORF2967P] (protein, listed as Staphylococcus aureus)
chain: VLRSDFYMSYSIVRVSKVKSGTNTTGIQKHVQRENNNYENEDIDHSKTYLNYDLVNANKQNFNNLIDEKIEQNYTGKRKIRTDAIKHIDGLITSDNDFFDNQTPEDTKQFFEYAKEFLEQEYGKDNLLYATVHMDEKTPHMHYGVVPITDDGRLSAKEVVGNKKALTAFQDRFNEHVKQRGYDLERGQSRQVTNAKHEQISQYKQKTEYHKQEYERESQKTDHIKQKNDKLMQEYQKSLNTLKKPINVPYEQETEKVGGLFSKEIQETGNVVISQKDFNEFQKQIKAAQDISEDYEYIKSGRALDDKDKEIREKDDLLNKAVERIENADDNFNQLYENAKPLKENIEIALKLLKILLKELERVLGRNTFAERVNKLTEDEPMA
No. of selected clones per ORF and screen [2]: C: 18

B3: homology with ORF1 [1951] (protein, listed as Staphylococcus aureus)
chain: MKKIATATIATAGFATIAIASGNQAHASEQDNYGYNPNDPTSYSYTYTIDAQGNYHYTWKGNWHPSQLNQDNGYYSYYYYNGYNNYNNYNNGYSYNNYSRYNNYSNNNQSYNYNNYNSYNTNSYRTGGLGASYSTSSNNVQVTTTMAPSSNGRSISSGYTSGRNLYTSGQCTYYVFDRVGGKIGSTWGNASNWANAAARAGYTVNNTPKAGAIMQTTQGAYGHVAYVESVNSNGSVRVSEMNYGYGPGVVTSRTISASQAAGYNFIH
No. of selected clones per ORF and screen [1]: A: 223, | No. of selected clones per ORF and screen [7]: B: 56, | No. of selected clones per ORF and screen [2]: C: 167, | No. of selected clones per ORF and screen [10]: E: 43, | No. of selected clones per ORF and screen [8]: F: 100, | No. of selected clones per ORF and screen [9]: G: 13, | No. of selected clones per ORF and screen [3]: H: 102
